According to PMC9863987, “Identification of Aryl Polyamines Derivatives as Anti-Trypanosoma cruzi Agents Targeting Iron Superoxide Dismutase” (Pharmaceutics, 2022):

Columns and labels:
Type in all cases: cell-based, Trypanosoma cruzi
Conditions in all cases: vs BZN
[1] = test system: T. cruzi Arequipa strain epimastigotes; test: Screening against extracellular epimastigotes, Arequipa strain (resazurin)
Protocol: (§1) Three different T. cruzi […] strains—MHOM/Pe/2011/Arequipa, discrete typing unit (DTU) V [26]; IRHOD/CO/2008/SN3, DTU I [27]; TINF/CH/1956/Tulahuen, DTU VI [26]—were grown at 28 °C in Gibco® RPMI 1640 Medium supplemented as previously reported, and used for in vitro screening.
(§2) Trypanocidal activity against epimastigotes was tested as previously reported. In brief, 5 × 10^5 mL^−1 epimastigotes culture medium were treated by adding the compounds in serial dilutions from 100 to 0.2 µM in 96-well plates (200 µL·well^−1) for 48 h. BZN and untreated growth control were also included in triplicate. Later, 20 μL of resazurin sodium salt (Sigma-Aldrich, St. Louis, MO, USA) was added, and the plates were incubated for another 24 h. Finally, the absorbance of the wells was measured at 570/600 nm and related to the control. The trypanocidal activity was expressed as the IC50 (inhibitory concentration 50) value using GraphPad Prism 6 software.

[2] = test system: T. cruzi Arequipa strain amastigotes; test: Screening against intracellular amastigotes in Vero cells, Arequipa strain (Giemsa counting)
Protocol: (§3) TINF/CH/1956/Tulahuen, DTU VI [26]—were grown at 28 °C in Gibco® RPMI 1640 Medium supplemented as previously reported, and used for in vitro screening. Trypanocidal activity against amastigotes was tested as previously reported. In brief, bloodstream trypomastigotes (BTs), obtained by cardiac puncture from infected BALB/c mice, were used to infect 1 × 10^4 Vero cells·well^−1 in 24-well plates with rounded coverslips at a multiplicity of infection (MOI) ratio of 10:1. After 24 h of infection, non-internalized trypomastigotes were washed and the infected cells were treated by adding the compounds in serial dilutions from 50 to 0.5 µM in […] for 72 h. BZN and untreated growth controls were also included in triplicate. Later, the number of amastigotes and infected cells were determined in Giemsa stained preparations by analysing 500 host cells randomly distributed in microscopic fields. The trypanocidal activity was expressed as the IC50 using GraphPad Prism 6 software (version 6.07).

[3] = test system: T. cruzi Arequipa strain trypomastigotes; test: Screening against bloodstream trypomastigotes, Arequipa strain (resazurin)
[4] = test system: T. cruzi SN3 strain epimastigotes; test: Screening against extracellular epimastigotes, SN3 strain (resazurin)
Protocol: as §1, §2

[5] = test system: T. cruzi Tulahuen strain epimastigotes; test: Screening against extracellular epimastigotes, Tulahuen strain (resazurin)
Protocol: as §1, §2

[6] = test system: T. cruzi Tulahuen strain amastigotes; test: Screening against intracellular amastigotes in Vero cells, Tulahuen strain (Giemsa counting)
Protocol: as §3

[7] = test system: T. cruzi Tulahuen strain trypomastigotes; test: Screening against bloodstream trypomastigotes, Tulahuen strain (resazurin)

Compound | number of times that compound exceeds the reference drug SI (in brackets) [1] | number of times that compound exceeds the reference drug SI (in brackets) [2] | number of times that compound exceeds the reference drug SI (in brackets) [3] | number of times that compound exceeds the reference drug SI (in brackets) [4] | number of times that compound exceeds the reference drug SI (in brackets) [5] | number of times that compound exceeds the reference drug SI (in brackets) [6] | number of times that compound exceeds the reference drug SI (in brackets) [7]
c1cncc(CNCCN(CCNCc2cccnc2)Cc2ccc3ccccc3c2)c1 [Compound 2] | 3 | 1 | 1 | 3 | 1 | – | –
CN(C)c1cccc2c(S(=O)(=O)N(CCNCc3cccnc3)CCNCc3cccnc3)cccc12 [Compound 8] | 1 | – | – | 2 | 3 | 1 | 2
c1cc2nc(c1)CNCCN(CCNCc1ccc3ccc4ccc(CNCCN5CCNCc6cccc(n6)CNCC5)nc4c3n1)CCNC2 [Compound 15] | 21 | 27 | 63 | 18 | 14 | 12 | 16
